Source: article PMC8630636, “Fis Connects Two Sensory Pathways, Quorum Sensing and Surface Sensing, to Control Motility in Vibrio parahaemolyticus”
Tags and fusion partners may be left off the protein sequences shown. Construct, isoform or probe ends are uncertain for at least one entry. At least one verdict rests on a figure or table, not on a statement of the authors.

Biological target: T1, Fis (Vibrio parahaemolyticus RIMD2210633) (UniProt P64128)
T1 sequence (looked up): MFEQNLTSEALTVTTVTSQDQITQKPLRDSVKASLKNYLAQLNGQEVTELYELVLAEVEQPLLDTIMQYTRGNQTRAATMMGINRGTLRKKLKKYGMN
Experiment: EMSA
Conditions: 10 mM Tris, 150 mM KCl, 0.1 mM DTT, 0.1 mM EDTA, 5% PEG, pH 7.4, 20 min at room temperature, 30 ng DNA, 6% native gel in 1x TAE at 4 C, recombinant protein, residues 1-98

Sequence	binding result	also measured
CCTTCTTAAGCCGAGGGTCACCTAGCCAACTGACGTTGTTAGTGAA (double strand) [Qrr3coding_WT]	binds	
CTACTTTAGATCTCGCTATATATGGTCTAAAAATTAACTGTTCATTTAAA (double strand) [PscrA_WT]	binds	
GATAACATGAATAAGATAAACCCATATTTTAAAGTGAATTCAAAAATTGA (double strand) [PgntK_WT (probe 2)]		binding result (non-specific binding not ruled out): binds
TTTGTGCCCCTAGTTATTGGAATTTAAGATGTACTGAAACATTAATTCGCATTATAAAATAAGTAATGGCGAACTGCTATTGTTTTAGGTCAAAAATTTGCTTTTTCTTTAACCAATGTTGCCTTTTGCAACCAGTTTTACGTTTGCTTTACGC (double strand) [PnagB probe 1]		binding result (probe letters rebuilt from the primers and the genome): binds
